Data reported in ChEMBL document CHEMBL3870339, “Burkholderia pseudomallei γ-carbonic anhydrase is strongly activated by amino acids and amines” (Bioorg Med Chem Lett, 2017).

What was measured:
[1] = molecular target: T1, Carbonic anhydrase (Methanosarcina thermophila) (UniProt P40881); test: Activation of recombinant Methanosarcina thermophila gamma carbonic anhydrase at 10 uM incubated for 15 mins prior to testing by stopped flow CO2 hydration assay
T1 sequence (whole entry): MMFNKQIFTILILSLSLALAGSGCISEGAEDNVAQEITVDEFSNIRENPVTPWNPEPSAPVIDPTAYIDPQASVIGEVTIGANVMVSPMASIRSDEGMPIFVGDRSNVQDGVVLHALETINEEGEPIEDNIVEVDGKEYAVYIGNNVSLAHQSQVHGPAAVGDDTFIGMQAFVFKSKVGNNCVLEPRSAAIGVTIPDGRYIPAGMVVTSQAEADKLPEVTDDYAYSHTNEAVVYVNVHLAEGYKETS

[2] = tested on: Burkholderia pseudomallei; test: Activation of Burkholderia pseudomallei gamma carbonic anhydrase at 10 uM incubated for 15 mins prior to testing by stopped flow CO2 hydration assay
[3] = tested on: Burkholderia pseudomallei; test: Activation of Burkholderia pseudomallei gamma carbonic anhydrase assessed as Kcat at 10 uM incubated for 15 mins prior to testing by stopped flow CO2 hydration assay

Work on `N[C@@H](Cc1ccccc1)C(=O)O` yielded a KA [1] of 68 µM, a KA [2] of 1.73 µM and a kcat [3] of 9.82 ×10⁵ /s.
For `N[C@H](Cc1ccccc1)C(=O)O`, the KA [1] was 42 µM, the KA [2] was 0.13 µM and the kcat [3] was 1.49 ×10⁶ /s.
